Measured values from several laboratories, pooled; numbers as filed in NIAID ChemDB.

Common to all: tests in culture

Inhibition is in % at the dose shown (toxicity tests: loss of growth or viability).

smiles | organism | strain | method | setting | measure | tested at | value
CCCCOc1ccc(N2CCC(c3ccc(CNC(=O)c4c(CC)nc5ccc(Cl)cn45)c(F)c3)CC2)cc1.Cl | Mycobacterium avium | - | fluorescence | - | inhibition | 0.016 µM | 85%
CO[C@H]1/C=C/O[C@@]2(C)Oc3c(C)c(O)c4c(O)c(c(/C=N/N5CCN(C6CCCC6)CC5)c(O)c4c3C2=O)NC(=O)/C(C)=C\C=C\[C@H](C)[C@H](O)[C@@H](C)[C@@H](O)[C@@H](C)[C@H](OC(C)=O)[C@@H]1C | Mycobacterium avium intracellulare | 23-Feb | - | - | MIC | - | 0.5 µg/mL
Cc1ccn2c(C(=O)NCc3ccc(-c4ccc(OCC(F)(F)F)cc4)c(F)c3)c(C)nc2c1 | Mycobacterium avium | - | fluorescence | - | inhibition | 0.043 µM | 85%
O=c1oc2ccc(Cl)cc2c(=S)n1-c1ccc(F)cc1 | Mycobacterium kansasii | My 235/80 | - | 21 d | MIC | - | 16 µM
CC[C@H]1OC(=O)[C@H](C)[C@@H](O[C@H]2C[C@@](C)(OC)[C@@H](OC(C)=O)[C@H](C)O2)[C@H](C)[C@@H](O[C@@H]2O[C@H](C)C[C@H](N(C)C)[C@H]2O)C(C)(O)C[C@@H](C)/C(=N\OCCc2cccs2)[C@H](C)[C@@H](O)[C@]1(C)O | Mycobacterium avium complex | 20039 (clarithromycin-susceptible) | - | - | MIC | - | 1.56 µg/mL
CCCCCCCCCCCCCCCCCCCC(=O)NC(CCC(=O)O)(CCC(=O)O)CCC(=O)O | Mycobacterium abscessus | AAy-P-1 | - | - | MIC | - | 3.4 µg/mL
Cc1nc2ccc(Br)cn2c1C(=O)NCc1ccc(N2CCN(c3ccc(OC(F)(F)F)cc3)[C@@H](C)C2)c(F)c1 | Mycobacterium avium | - | fluorescence | - | inhibition | 0.0045 µM | 85%
CC[C@H]1OC(=O)[C@H](C)[C@@H](O[C@H]2C[C@@](C)(OC)[C@@H](OC(C)=O)[C@H](C)O2)[C@H](C)[C@@H](O[C@@H]2O[C@H](C)C[C@H](N(C)C)[C@H]2OC(=O)NNCc2ccccc2[N+](=O)[O-])C(C)(O)C[C@@H](C)/C(=N\OCCCC2CCCCC2)[C@H](C)[C@@H](O)[C@]1(C)O | Mycobacterium avium complex | 20039 (clarithromycin-susceptible) | - | - | MIC | - | 0.78 µg/mL
CCCCCCCCCCCCCCCCCCCCCOC(=O)NC(C)(CCC(=O)O)CCC(=O)O | Mycobacterium marinum | ATCC 927 | - | - | MIC | - | 424 µg/mL
CC[C@H]1OC(=O)[C@H](C)[C@@H](O[C@H]2C[C@@](C)(OC)[C@@H](OC(C)=O)[C@H](C)O2)[C@H](C)[C@@H](O[C@@H]2O[C@H](C)C[C@H](N(C)C)[C@H]2O)C(C)(O)C[C@@H](C)/C(=N\OCCCCCc2ccccc2)[C@H](C)[C@@H](O)[C@]1(C)O | Mycobacterium avium complex | 20096 (clarithromycin-resistant) | - | - | MIC | - | 3.13 µg/mL
CCCCCCCCCN(CCCCCCCCC)C(=O)NC(CCC(=O)O)(CCC(=O)O)CCC(=O)O | Mycobacterium chelonae | EO-P-1 | - | - | MIC | - | 105 µg/mL
COc1ccc2oc(=O)n(-c3ccccc3)c(=S)c2c1 | Mycobacterium kansasii | My 235/80 | - | 14 d | MIC | - | 16 µM
Cc1ccn2c(C(=O)NCc3ccc(N4CCN(CC(F)F)CC4)c(F)c3)c(C)nc2c1 | Mycobacterium avium | - | fluorescence | - | inhibition | 0.93 µM | 85%
CC[C@H]1OC(=O)[C@H](C)[C@@H](O[C@H]2C[C@@](C)(OC)[C@@H](OC(C)=O)[C@H](C)O2)[C@H](C)[C@@H](O[C@@H]2O[C@H](C)C[C@H](N(C)C)[C@H]2O)C(C)(O)C[C@@H](C)/C(=N\OC)[C@H](C)[C@@H](O)[C@]1(C)O | Mycobacterium avium complex | 20039 (clarithromycin-susceptible) | - | - | MIC | - | 6.25 µg/mL
NCC[C@H](O)C(=O)N[C@@H]1C[C@H](N)[C@@H](O[C@H]2O[C@H](CN)[C@@H](O)[C@H](O)[C@H]2O)[C@H](O)[C@H]1O[C@H]1O[C@H](CO)[C@@H](O)[C@H](N)[C@H]1O | Mycobacterium chelonae | EO-P-1 | - | - | MIC | - | 2.3 µg/mL
Cc1ccc2oc(=S)n(-c3ccc(F)cc3)c(=S)c2c1 | Mycobacterium kansasii | My 235/80 | - | 21 d | MIC | - | 16 µM
Cc1cn2c(C(=O)NCc3ccc(C4CC5(CCN(c6ccc(C(F)(F)F)cc6)CC5)C4)c(F)c3)c(C)nc2s1 | Mycobacterium avium | - | fluorescence | - | inhibition | 0.15 µM | 85%
CC[C@H]1OC(=O)[C@H](C)[C@@H](O[C@H]2C[C@@](C)(OC)[C@@H](OC(C)=O)[C@H](C)O2)[C@H](C)[C@@H](O[C@@H]2O[C@H](C)C[C@H](N(C)C)[C@H]2O)C(C)(O)C[C@@H](C)/C(=N\OCCC2CCCCC2)[C@H](C)[C@@H](O)[C@]1(C)O | Mycobacterium avium complex | 20039 (clarithromycin-susceptible) | - | - | MIC | - | 3.13 µg/mL
O=c1oc2ccc(F)cc2c(=S)n1-c1ccccc1 | Mycobacterium kansasii | 6509/96 | - | 21 d | MIC | - | 1 µM
CC[C@H]1OC(=O)[C@H](C)[C@@H](O[C@H]2C[C@@](C)(OC)[C@@H](OC(C)=O)[C@H](C)O2)[C@H](C)[C@@H](O[C@@H]2O[C@H](C)C[C@H](N(C)C)[C@H]2OC(=O)NNCc2ccncc2)C(C)(O)C[C@@H](C)/C(=N\OCCCC2CCCCC2)[C@H](C)[C@@H](O)[C@]1(C)O | Mycobacterium avium complex | 20092 (clarithromycin-resistant) | - | - | MIC | - | 0.78 µg/mL
Cc1ccc2oc(=O)n(-c3cccc(Cl)c3)c(=S)c2c1 | Mycobacterium kansasii | My 235/80 | - | 21 d | MIC | - | 4 µM
COc1ccn2nc(C)c(C(=O)NCc3ccc(N4C[C@H](C)N(c5ccc(OC(F)(F)F)cc5)C[C@H]4C)c(F)c3)c2c1.Cl | Mycobacterium avium | - | fluorescence | - | inhibition | 0.031 µM | 85%
CCCCCCCCCCCCC(CCCCCCCCCCCC)NC(=O)NC(CCC(=O)O)(CCC(=O)O)CCC(=O)O | Mycobacterium marinum | ATCC 927 | - | - | MIC | - | 27 µg/mL
Nc1ccc(S(=O)(=O)c2ccc(N)cc2)cc1 | Mycobacterium avium complex | 101 | - | - | MIC | - | 32 µg/mL
Cc1ccn2c(C(=O)NCc3ccc(N4CCN(c5ccc(OC(F)(F)F)cc5)[C@@H](C)C4)cc3)c(C)nc2c1 | Mycobacterium avium | - | fluorescence | - | inhibition | 0.036 µM | 85%
CCCCCCCCCCCCCCC(=O)NC(C)(CCC(=O)O)CCC(=O)O | Mycobacterium marinum | ATCC 927 | - | - | MIC | - | 286 µg/mL
CC[C@H]1OC(=O)[C@H](C)[C@@H](OC(=O)CCCc2ccccc2)[C@H](C)[C@@H](O[C@@H]2O[C@H](C)C[C@H](N(C)C)[C@H]2O)C(C)(O)C[C@@H](C)/C(=N\OCCCOc2ccccc2)[C@H](C)[C@@H](O)[C@]1(C)O | Mycobacterium avium complex | 20096 (clarithromycin-resistant) | - | - | MIC | - | 12.5 µg/mL
CCc1nc2cc(F)ccn2c1C(=O)NCc1ccc(N2CCN(c3ccc(C(F)(F)F)cn3)[C@@H](C)C2)c(F)c1.Cl | Mycobacterium avium | - | fluorescence | - | inhibition | 0.0048 µM | 85%
CC(C)N=C(N)/N=C(\N)NOCCCOc1cc(Cl)c(Cl)cc1Cl | Mycobacterium avium complex | 516 | - | - | MIC | - | 32 µg/mL
CCCCCCCCCCCCCCCCCCCCCC(=O)NC(CCC(=O)O)(CCC(=O)O)CCC(=O)O | Mycobacterium abscessus | AAy-P-1 | - | - | MIC | - | 3.4 µg/mL
Cc1ccn2c(C(=O)NCc3ccc(N4[C@@H]5CC[C@H]4CN(c4ccc(OC(F)(F)F)cc4)C5)c(F)c3)c(C)nc2c1 | Mycobacterium avium | - | fluorescence | - | inhibition | 0.2 µM | 85%

Blank or dashed fields: not listed here. Neighbouring rows are from separate reports.